Compound potency records, mixed from different reports. Data source: NIAID ChemDB in PubChem.

Shared fields: cytotoxicity tests; cells: H9; measure: CC50

Lines come from different laboratories, so protocols vary. CCn is the concentration with n% toxicity to the cells.

structure | result
O=C1OCC2OC(=O)c3cc(O)c(O)c(O)c3-c3c(O)c(O)c(O)c4c3C(=O)OC(C2OC(=O)c2cc(O)c(O)c(O)c2-c2c1cc(O)c(O)c2O)C1OC(=O)c2c-4c(O)c(O)c(O)c2[C@H]1O | 15 µM
CC1(C)Oc2ccc3ccc(=O)oc3c2C(OC(=O)c2cccc(Cl)c2)C1OCc1ccccc1 | 15.5 µM
C=C(C)[C@@H]1CC[C@]2(C(=O)O)CC[C@]3(C)[C@H](CC[C@@H]4[C@@]5(C)CC[C@H](OC(=O)CCCC(=O)O)C(C)(C)[C@@H]5CC[C@]43C)[C@@H]12 | 12.8 µM
CC(=O)O[C@@H]1[C@H](OC(=O)CC(C)C)c2c(ccc3ccc(=O)oc23)OC1(C)C | 79.56 µM
CC(C)CC(=O)N[C@H](C(=O)N[C@H](C(=O)N[C@@H](CC(C)C)[C@@H](O)CC(=O)N[C@@H](C)C(=O)N[C@@H](CC(C)C)[C@@H](O)CC(=O)O)C(C)C)C(C)C | >1000 µM
Oc1cc(O)c2c(c1)O[C@@]1(c3ccc(O)c(O)c3)Oc3cc(O)c4c(c3[C@@H]2[C@H]1O)O[C@H](c1ccc(O)c(O)c1)[C@H](O)[C@H]4c1c(O)cc(O)c2c1O[C@H](c1ccc(O)c(O)c1)[C@H](O)C2 | >25 µM
CC12CCC[C@]3(C(=O)OC1)[C@@H]2CC[C@@]12C[C@@H](CC[C@H]13)[C@@](C)(O)C2 | 3.1 µM
CCN(CC)CCNc1ccnc(NCCCNC(=O)c2ccc(C(=O)NCCCNc3nccc(NCCN(CC)CC)n3)cc2)n1 | >50 µM
CC(C)=CC(=O)OC1c2c(ccc3ccc(=O)oc23)OC(C)(C)C1OC(=O)C=C(C)C | 16.45 µM
O=C(NCCCNc1ncccn1)c1cccc(C(=O)NCCCNc2ncccn2)c1 | >50 µM
O=C1O[C@@H]2[C@@H](OC(=O)c3cc(O)c(O)c(O)c3-c3c1cc(O)c(O)c3O)[C@@H](O)O[C@@H]1COC(=O)c3cc(O)c(O)c(O)c3-c3c(O)c(O)c4oc(=O)c5c(c(O)c(O)c6oc(=O)c3c4c65)-c3c(cc(O)c(O)c3O)C(=O)O[C@@H]21 | >20 µg/mL
C=C(C)[C@@H]1CC[C@]2(C(=O)O)CC[C@]3(C)[C@H](CC[C@@H]4[C@@]5(C)CC[C@@H](NC(=O)COCC(=O)O)C(C)(C)[C@@H]5CC[C@]43C)[C@@H]12 | 174.9 µM
CCN(CC)CCNc1ccnc(NCCCNC(=O)CC(=O)NCCNc2nccc(NCCN(CC)CC)n2)n1 | >50 µM
Oc1cc(O)c2c(c1)O[C@H](c1ccc(O)c(O)c1)[C@H](O)[C@H]2c1c(O)cc(O)c2c1O[C@H](c1ccc(O)c(O)c1)[C@H](O)C2 | >25 µM
CCN(CC)CCNc1nc(NCCCNC(=O)c2ccc(C(=O)NCCCNc3nc4c(c(NCCN(CC)CC)n3)CC=CC4)cc2)nc2c1CC=CC2 | 50 µM
CC(C)CCC[C@@H](C)[C@H]1CCC2C3CCC4C[C@@H](O[C@@H]5O[C@H](COS(=O)(=O)[O-])[C@@H](O[C@H]6O[C@H](COS(=O)(=O)[O-])[C@@H](O[C@H]7O[C@H](COS(=O)(=O)[O-])[C@@H](O[C@H]8O[C@H](COS(=O)(=O)[O-])[C@@H](OS(=O)(=O)[O-])[C@H](OS(=O)(=O)[O-])[C@H]8OS(=O)(=O)[O-])[C@H](OS(=O)(=O)[O-])[C@H]7OS(=O)(=O)[O-])[C@H](OS(=O)(=O)[O-])[C@H]6OS(=O)(=O)[O-])[C@H](OS(=O)(=O)[O-])[C@H]5OS(=O)(=O)[O-])CC[C@]4(C)C3CC[C@@]21C | 550 µg/mL
C=C(C)[C@@H]1CC[C@]2(C(=O)NCCCCCCCC(=O)N[C@@H](CC(C)C)[C@@H](O)CC(=O)O)CC[C@]3(C)[C@H](CC[C@@H]4[C@@]5(C)CC[C@H](O)C(C)(C)[C@@H]5CC[C@]43C)[C@@H]12 | 2.7 µM
CCN(CC)CCNc1ccnc(NCCCNC(=O)CCC(=O)NCCCNc2nccc(NCCN(CC)CC)n2)n1 | >50 µM
C[C@H](Cc1ccc(OC(=O)CN(C)C)c(OC(=O)CN(C)C)c1)[C@@H](C)Cc1ccc(OC(=O)CN(C)C)c(OC(=O)CN(C)C)c1 | >100 µM
CCN(CC)CCNc1ccnc(NCCCNC(=O)c2cccc(C(=O)NCCCNc3nccc(NCCN(CC)CC)n3)c2)n1 | >50 µM
CN(C)c1ncnc2c1ncn2[C@@H]1O[C@H](CO)[C@@H](N)[C@H]1O | >10 µg/mL
C=C(C)[C@@H]1CC[C@]2(C(=O)O)CC[C@]3(C)[C@H](CC[C@@H]4[C@@]5(C)CC[C@H](NC(=O)COCC(=O)O)C(C)(C)[C@@H]5CC[C@]43C)[C@@H]12 | 38.7 µM
CC(C)[C@@H]1CC[C@]2(C(=O)OCc3ccccc3)CC[C@]3(C)[C@H](CC[C@@H]4[C@@]5(C)CC[C@H](OC(=O)CCCC(=O)O)C(C)(C)[C@@H]5CC[C@]43C)[C@@H]12 | 9.3 µM
O=C(OCC1OC(OC(=O)c2cc(O)c(O)c(O)c2)C(OC(=O)c2cc(O)c(O)c(O)c2)C(OC(=O)c2cc(O)c(O)c(O)c2)C1OC(=O)c1cc(O)c(O)c(O)c1Oc1cc2c(c(O)c1O)-c1c(cc(O)c(O)c1O)C(=O)OCC1OC(OC(=O)c3cc(O)c(O)c(O)c3)C(OC(=O)c3cc(O)c(O)c(O)c3)C(OC(=O)c3cc(O)c(O)c(O)c3)C1OC2=O)c1cc(O)c(O)c(O)c1 | 93 µM
COc1cc(C(=O)OC(=O)[C@]23CC[C@@H](C(C)C)[C@@H]2[C@H]2CC[C@@H]4[C@@]5(C)CC[C@H](OC(=O)c6cc(OC)c(OC)c(OC)c6)C(C)(C)[C@@H]5CC[C@@]4(C)[C@]2(C)CC3)cc(OC)c1OC | 53 µM
C=C(C)[C@@H]1CC[C@]2(C(=O)O)CC[C@]3(C)[C@H](CC[C@@H]4[C@@]5(C)CC[C@H](OC(=O)COCC(=O)O)C(C)(C)[C@@H]5CC[C@]43C)[C@@H]12 | 11.7 µM
CC(C)[C@@H]1CC[C@]2(C(=O)OC(=O)N3CCOCC3)CC[C@]3(C)[C@H](CC[C@@H]4[C@@]5(C)CC[C@H](O)C(C)(C)[C@@H]5CC[C@]43C)[C@@H]12 | 35 µM
O=C(O[C@@H]1[C@@H](c2c(O)cc(O)c3c2O[C@H](c2ccc(O)c(O)c2)[C@H](OC(=O)c2cc(O)c(O)c(O)c2)C3)c2c(O)cc(O)cc2O[C@@H]1c1ccc(O)c(O)c1)c1cc(O)c(O)c(O)c1 | >25 µM
CC1(C)C=Cc2c(ccc3ccc(=O)oc23)O1 | 17.5 µM
CC(C)[C@@H]1CC[C@]2(C(=O)O)CC[C@]3(C)[C@H](CC[C@@H]4[C@@]5(C)CC[C@H](OC(=O)C(C)(C)CC(=O)O)C(C)(C)[C@@H]5CC[C@]43C)[C@@H]12 | 7.7 µM
O=C(OC[C@H]1O[C@@H](OC(=O)c2cc(O)c(O)c(O)c2)[C@H](O)[C@@H](O)[C@@H]1O)c1cc(O)c(O)c(O)c1 | 38 µM

Repeating the final 2 entries:

structure,result
CC(C)[C@@H]1CC[C@]2(C(=O)O)CC[C@]3(C)[C@H](CC[C@@H]4[C@@]5(C)CC[C@H](OC(=O)C(C)(C)CC(=O)O)C(C)(C)[C@@H]5CC[C@]43C)[C@@H]12,7.7 µM
O=C(OC[C@H]1O[C@@H](OC(=O)c2cc(O)c(O)c(O)c2)[C@H](O)[C@@H](O)[C@@H]1O)c1cc(O)c(O)c(O)c1,38 µM